Compound potency records, mixed from different reports. Data source: NIAID ChemDB in PubChem.

Common to all: tests in culture; organism: Mycobacterium avium; read-out: MIC

Neighbouring rows are from separate reports. An empty or dashed field is not shown.

compound,conditions,strain or isolate,value
COC(=O)c1cnccn1,21 d,330/88,>500 µM
N/C(=N\N=C\c1ccc(Cl)c([N+](=O)[O-])c1)c1ccccn1,,,>256 µg/mL
Oc1cc(Br)cc(Br)c1C(=S)NCc1ccc(C(F)(F)F)cc1,,MY330/88,32 µg/mL
Clc1ccc(CSc2ncn[nH]2)cc1Cl,,MY330/88,500 µM
CCCCc1ccc(NC(=S)Nc2ccc(SCCC)cc2)cc1,,724,5 µg/mL
Nc1ccccc1C(=O)Nc1cccc(Cl)c1,,MY330/88,>125 µM
Oc1cc(Cl)ccc1C(=S)NCc1ccccc1,,MY330/88,8 µg/mL
NC(=S)c1cc(SCc2ccc(Cl)cc2)ccn1,,CNCTC MY330/88,7.94 µM
COc1ccc(NC(=O)c2cc(Cl)ccc2O)cc1,,CNCTC MY330/88,31 µM
CSc1ccc(NC(=S)Nc2ccc(SC)cc2)cc1,,724,>20 µg/mL
NC(=Nc1ccc2ccc3cccnc3c2n1)c1ccccn1,,SN 304,8 µg/mL
Cn1cnnc1SCc1ccc(Cl)cc1,,MY330/88,1000 µM
Clc1ccc(C(Cn2ccnc2)NC/C=C/c2ccccc2)cc1,,CIP103317,>16 µg/mL
Cc1ccc(C(=O)c2ccc(-c3ccc(Br)cc3)cc2)cc1,,,712 µM
N#Cc1cc(SCc2ccc([N+](=O)[O-])cc2[N+](=O)[O-])ccn1,,CNCTC MY330/88,30.9 µM
O=c1oc2ccc(F)cc2c(=S)n1-c1cccc(Cl)c1,21 d,MY330/88,8 µM
CN(C)c1ccc(NC(=O)c2cc([N+](=O)[O-])ccc2O)cc1,,CNCTC MY330/88,500 µM
CCCCOc1cccc(NC(=O)OCCN2CCOCC2)c1,,MY330/88,125 µM
Cc1cccc(C(N)=Nc2nc(-c3ccccn3)cc3ccccc23)c1,,SN 304,0.5 µg/mL
NC(=S)c1cc(SCc2ccc(Cl)c(Cl)c2)ccn1,,CNCTC MY330/88,3.98 µM
O=C(Nc1ccc(Br)cc1)c1cc(F)ccc1O,,CNCTC MY330/88,8 µM
CCCCCCOc1ccccc1NC(=O)OCCN(C)C,,MY330/88,62.5 µM
Cc1ccc(O)c(C(=O)Nc2ccc(C#N)cc2)c1,,CNCTC MY330/88,1000 µM
CCCCCCCOc1ccccc1NC(=O)OCC[NH+]1CCCC1,,MY330/88,16 µM
Clc1ccc(C(Cn2ccnc2)NCc2ccc(-c3ccccc3)cc2)c(Cl)c1,,CIP103317,8 µg/mL
O=C(c1ccc(Cl)cc1)c1ccc(-c2ccc(Br)cc2)cc1,,,344 µM
O=C(Nc1cccc(CN2CCOCC2)c1)c1ccc(Cl)cc1,,103317,>16 µg/mL
Fc1cccc(-n2c(=S)oc3ccc(Cl)cc3c2=S)c1,21 d,MY330/88,62.5 µM
CCOC(=O)c1ccc(-n2c(=O)oc3ccc(F)cc3c2=O)cc1,,CNCTC MY330/88,32 µM
Clc1ccc(C(Cn2ccnc2)NCc2ccc(-c3ccccc3)cc2)cc1,,CIP103317,8 µg/mL
CCOC1Oc2ccc(Cl)cc2C(=O)/C1=C\Nc1cccc(C(=O)O)c1O,,MY 80/72,100 µg/mL
Cc1cccc(CSc2ccnc(C#N)c2)c1,,CNCTC MY330/88,30.9 µM
O=C(Nc1ccc(Cl)cc1)c1ccccc1O,,CNCTC MY330/88,31 µM
CC1(C)S[C@@H]2[C@H](NC(=O)[C@H](C(=O)[O-])c3ccsc3)C(=O)N2[C@H]1C(=O)[O-].[Na+].[Na+],,2 strains,>128 µg/mL
O=c1oc2cc(Cl)ccc2c(=O)n1-c1ccc(Cl)cc1,,CNCTC MY330/88,16 µM
CN1CCN(Cc2cccc(NC(=O)/C=C/c3ccccc3)c2)CC1,,103317,8 µg/mL
Nc1ccc(Cl)cc1C(=O)Nc1ccc(F)cc1,,MY330/88,>62 µM
CCCCCCCOc1ccc(NC(=O)OCCN(C)C)cc1,,MY330/88,16 µM
O=C(Nc1ccc(F)cc1)c1cc(Br)ccc1O,,CNCTC MY330/88,31 µM
O=C(Oc1cc(Cl)ccc1C(=O)Nc1ccc(Cl)cc1)c1cnccn1,14 d,330/88,2 µM
Cc1ccc(/C=N/N=C(/N)c2ccccn2)c(C)c1,,,32 µg/mL
COc1ccc2oc(=O)n(-c3ccc(F)cc3)c(=O)c2c1,,CNCTC MY330/88,62.5 µM
CCOC1Oc2ccccc2C(=O)/C1=C\Nc1ccc(C(=O)O)c(O)c1,,MY 80/72,25 µg/mL
Nc1ccc(Cl)cc1C(=O)Nc1ccc(Br)cc1,,MY330/88,62 µM
CCCCCCOC1Oc2ccc(Cl)cc2C(=O)/C1=C\Nc1ccc(C(=O)O)c(O)c1,,MY 80/72,50 µg/mL
O=c1oc2ccc([N+](=O)[O-])cc2c(=O)n1-c1ccc(F)cc1,,CNCTC MY330/88,500 µM
Cc1cccc(CSc2ccnc(C(N)=S)c2)c1,,CNCTC MY330/88,7.94 µM
COc1ccc(-n2c(=O)oc3ccc(C)cc3c2=O)cc1,,CNCTC MY330/88,62.5 µM
N/C(=N/N=C/c1ccccc1Cl)c1ccccn1,,,16 µg/mL
FC(F)(F)c1cc(CSc2ncn[nH]2)cc(C(F)(F)F)c1,,MY330/88,500 µM
Fc1ccc(C(Cn2ccnc2)NCc2ccc(-c3ccccc3)cc2)cc1,,CIP103317,8 µg/mL
Fc1cccc(-n2c(=S)oc3ccc(Br)cc3c2=S)c1,14 d,MY330/88,16 µM
Fc1ccccc1CSc1ncn[nH]1,,MY330/88,500 µM
O=C(Nc1ccccc1CN1CCOCC1)c1ccc(-c2ccccc2)cc1,,103317,>16 µg/mL
COc1ccc2oc(=O)n(-c3ccc(Cl)cc3)c(=S)c2c1,14 d,MY330/88,32 µM
c1ccc(-c2ccc(CNC(Cn3ccnc3)c3ccccc3)cc2)cc1,,CIP103317,8 µg/mL
Nc1ccccc1C(=O)Nc1cccc(F)c1,,MY330/88,250 µM
COC(=O)c1ccc(C(=O)c2ccc(-c3ccc(Br)cc3)cc2)cc1,,,316 µM
N/C(=N\N=C\c1ccc(Cl)c(Cl)c1)c1ccccn1,,,256 µg/mL
CCC(C)c1ccc(NC(=O)c2cc(Cl)ccc2N)cc1,,MY330/88,31 µM
Oc1ccc(Cl)cc1C(=S)NCc1ccc(Br)cc1,,MY330/88,2 µg/mL
O=C(Nc1ccc2ccc3cccnc3c2n1)c1ccccc1,,SN 304,2 µg/mL
CCOc1ccc(NC(=O)OCCN(C)C)cc1,,MY330/88,1000 µM
O=C(Nc1cccc(Cl)c1)c1cc(Br)ccc1O,,CNCTC MY330/88,31 µM
NC(=S)c1cc(SCc2cccc(F)c2)ccn1,,CNCTC MY330/88,15.85 µM
CCOC1Oc2ccc([N+](=O)[O-])cc2C(=O)/C1=C\Nc1ccc(C(=O)O)c(O)c1,,MY 80/72,25 µg/mL
NC(=Nc1ccc2ccc3cccnc3c2n1)c1ccccc1,,SN 304,8 µg/mL
COc1ccc(NC(=S)Nc2ccc(OC)cc2)cc1,,724,>20 µg/mL
O=c1oc2ccc(Br)cc2c(=S)n1-c1ccc(Br)cc1,14 d,MY330/88,32 µM
O=C(Oc1ccc(Cl)cc1C(=O)Nc1ccc(Cl)cc1)c1cnccn1,21 d,330/88,8 µM
COc1cccc(CSc2ncn[nH]2)c1,,MY330/88,500 µM
CCCCc1ccc(NC(=S)Nc2ccc(O)cc2)cc1,,724,10 µg/mL
O=C(Oc1cc(Cl)ccc1C(=O)Nc1cccc(F)c1)c1cnccn1,14 d,330/88,8 µM
Fc1ccc(C(Cn2ccnc2)NC/C=C/c2ccccc2)cc1,,CIP103317,>16 µg/mL
O=c1oc2cc(Cl)ccc2c(=O)n1-c1ccc(Cl)c(Cl)c1,,CNCTC MY330/88,8 µM

For reference, 5 entries again:

| compound | conditions | strain or isolate | value |
|---|---|---|---|
| Nc1ccccc1C(=O)Nc1cccc(Cl)c1 |  | MY330/88 | >125 µM |
| Cn1cnnc1SCc1ccc(Cl)cc1 |  | MY330/88 | 1000 µM |
| O=c1oc2ccc(F)cc2c(=S)n1-c1cccc(Cl)c1 | 21 d | MY330/88 | 8 µM |
| CN1CCN(Cc2cccc(NC(=O)/C=C/c3ccccc3)c2)CC1 |  | 103317 | 8 µg/mL |
| O=C(c1ccc(Cl)cc1)c1ccc(-c2ccc(Br)cc2)cc1 |  |  | 344 µM |